In experiment [1] the target is 2Cys site directed variant of H3 A/Perth/16/2009 rHA (C524S, C528A) (influenza A virus, H3 A/Perth/16/2009). Nature of the experiment: cross-linking.
The target of experiment [2] is 3Cys site directed variant of H3 A/Perth/16/2009 rHA (C539A, C546A, C549A) (influenza A virus, H3 A/Perth/16/2009). Nature of the experiment: cross-linking.

In experiment [1], “2Cys site directed variant of H3 A/Perth/16/2009 rHA (C524S, C528A) (natural protein)” had a percent cross-linked after 1 month at 25°C of 63%.
Take “3Cys site directed variant of H3 A/Perth/16/2009 rHA (C539A, C546A, C549A) (natural protein)”: the percent cross-linked after 1 month at 25°C in experiment [2] was 15%.

The values above are taken from PMC4320835, “Modifications of cysteine residues in the transmembrane and cytoplasmic domains of a recombinant hemagglutinin protein prevent cross-linked multimer formation and potency loss” (2014).
